Our source for the inhibition values is PubChem BioAssay AID1706 (The Scripps Research Institute Molecular Screening Center, 2009).

The entries are a selection whose mix differs from that of the whole data set. Calls of active or inactive are those of the source. No stated cut-off is given here; in the data, active means inhibition above about 12%; inactive means the rest.

The target of this experiment is Replicase polyprotein 1ab (Severe acute respiratory syndrome coronavirus) (UniProt P0C6X7). Kind of experiment: SARS-CoV 3CLpro protease inhibitors, primary screen, biochemical, quenched FRET (AID 1706). The note with it: recombinant SARS-CoV 3CLpro, quenched FRET peptide cleavage; at 6 µM; active compounds read high.
Take `CN1CCC(Nc2ccc(Cl)cc2)CC1`: the inhibition was inactive: -1.35%.
For `CCCOc1ccc(C)cc1CN(CCCl)CCCl` the value was inactive: 4.51%.
Take `COc1cc(OC)cc(C(=O)NCC2(N3CCOCC3)CCCCC2)c1`: the inhibition is inactive: 0.76%.
For `COc1cccc(C(=O)N(c2cc(C)cc(C)c2)C2CCN(C(=O)OC(C)(C)C)CC2)c1` the value was inactive: 8.06%.
Consider `CCC(CO)(C(=O)OC1CN2CCC1CC2)c1ccccc1` (centres undefined), for which the inhibition was inactive: 1.38%.
Under `O=C(O)C1(Nc2ccccc2)CCN(Cc2ccccc2)CC1` stands inactive: 1.71%; under `CC(C)(C)OC(=O)N1CCC(Nc2ccccc2)CC1`, inactive: -0.93%; under `CCCOc1ccc(C(=O)NCC2(N(C)C)CCCCC2)cc1`, inactive: 3.69%.
As to `CN1CCC(Nc2ccc(F)c(Cl)c2)CC1`, the inhibition was inactive: 3.04%.
On to `CCOc1ncccc1C(=O)NCC1(N2CCOCC2)CCCCC1`, for which the inhibition was inactive: -1.01%.
Under `CN(C)c1ccc(C(=O)NCC2(N3CCCCC3)CCCCC2)cc1` stands inactive: 0.99%; under `CCN1CCC(Nc2cccc(F)c2)CC1`, inactive: -4.96%.
Under `COc1cc(OC)cc(C(=O)NCC2(N3CCCCC3)CCCCC2)c1` stands inactive: -1.2%; under `CN(C)C1(CNC(=O)c2cccc(C#N)c2)CCCCC1`, inactive: -1.62%; under `CCCN1CCC(Nc2cc(OC)cc(OC)c2)CC1`, inactive: 1.23%.
Under `c1ccc(CN2CCC(Nc3ccccc3)CC2)cc1` stands inactive: 1.54%; under `N#Cc1ccc(C(=O)NCC2(N3CCCCC3)CCCCC2)cc1`, inactive: -1.01%.
For `CC(C)(C)OC(=O)N1CCC(N(C(=O)c2ccccc2)c2ccc(Cl)cc2)CC1`, the inhibition was inactive: 0.31%.
On to `O=C(OC1CN2CCC1CC2)C1c2ccccc2C=Cc2ccccc21` (centres undefined), for which the inhibition is inactive: -3.01%.
In the case of `CCOC(=O)N1CCC(Nc2ccc(C)cc2)CC1`, the inhibition is inactive: -2.06%.
`N/C(=N\O)c1c(N)no[n+]1[O-]`: the inhibition is inactive: -2.3%.
For `COc1ccc(C(=O)NCC2(N3CCOCC3)CCCCC2)cc1OC` the value was inactive: -1.47%; for `CCCOc1ccc(C(=O)NCC2(N(C)C)CCCCC2)cc1OC`, inactive: -6.47%; for `CN1CCC(Nc2cccc(F)c2)CC1`, inactive: 0.81%.
For `COc1cc(OC)c(C(=O)NCC2(N(C)C)CCCCC2)cc1OC`, the inhibition is inactive: 1.34%.
Consider `CC(C)c1ccc(NC2CCN(C(=O)OC(C)(C)C)CC2)cc1`, for which the inhibition is inactive: 2.41%.
For `CN(C)c1cccc(C(=O)NCC2(N3CCCCC3)CCCCC2)c1` the value was inactive: 0.48%; for `COc1ccc(CN(CCCl)CCCl)cc1Cl`, inactive: 3.27%; for `COc1cc(C(=O)NCC2(N3CCCCC3)CCCCC2)ccc1OC(F)F`, inactive: -10.4%.
Consider `O=C(NCC1(N2CCOCC2)CCCCC1)c1cc(=O)[nH]c2ccccc12`, for which the inhibition was inactive: -3.58%.
For `CN1CCN(CCOC(=O)C(O)(c2ccccc2)c2ccccc2)CC1` the value was inactive: -0.43%; for `COc1ccc(NC2CCN(C(=O)OC(C)(C)C)CC2)cc1`, inactive: 0.39%.
Regarding `O=C(NCC1(N2CCCCC2)CCCCC1)c1cccc(C(F)(F)F)c1`, the inhibition is inactive: -7.59%.
Under `N#CC1(Nc2ccccc2)CCN(CCc2ccccc2)CC1` stands inactive: 2.16%; under `CCN1CCC(Nc2ccc(Cl)cc2)CC1`, inactive: -1.1%; under `O=C(NCC1(N2CCCCC2)CCCCC1)c1cccc([N+](=O)[O-])c1`, inactive: -3.09%.
With `O=C(NCC1(N2CCCCC2)CCCCC1)c1ccc(OC(F)F)cc1`, the inhibition is inactive: 2.34%.
In the case of `Cc1ccc(OCC(C)C)c(CN(CCCl)CCCl)c1`, the inhibition is inactive: 1.76%.
As to `CCOC(=O)N1CCC(Nc2cccc(C)c2)CC1`, the inhibition is inactive: 0.78%.
Under `COc1cc(C(=O)NCC2(N(C)C)CCCCC2)ccc1OC(F)F` stands inactive: -1.27%; under `COc1ccc(NC2CCN(CCc3ccccc3)CC2)c(OC)c1`, inactive: 1%.
Under `CCOC(=O)N1CCC(Nc2ccc(F)cc2)CC1` stands inactive: -6.59%; under `O=C(NCC1(N2CCCCC2)CCCCC1)c1ccc(F)cc1`, inactive: -0.61%.
For `CCOc1ccc(C)cc1CN(CCCl)CCCl` the value was inactive: 6.38%; for `N#CC1(Nc2ccccc2)CCN(Cc2ccccc2)CC1`, inactive: 6.68%.
For the compound `O=C(OC1CN2CCC1CC2)C1c2ccccc2Oc2ccccc21` (centres undefined), the inhibition is inactive: 0.44%.
Under `CCOC(=O)N1CCC(Nc2ccc(OC)cc2)CC1` stands inactive: 0.85%; under `Cc1cc(C)cc(N(C(=O)c2ccccc2)C2CCN(C(=O)OC(C)(C)C)CC2)c1`, inactive: -1.31%.
Under `O=C(NCC1(N2CCOCC2)CCCCC1)c1cc2ccccc2o1` stands inactive: 2.35%; under `CSc1ccccc1C(=O)NCC1(N2CCCCC2)CCCCC1`, inactive: 0.51%; under `CC(C)(C)OC(=O)N1CCC(N(C(=O)c2ccccc2)c2ccc(F)cc2)CC1`, inactive: 3.69%.
For `COc1ccc(C(=O)NCC2(N3CCCCC3)CCCCC2)c(OC)c1OC` the value was inactive: 0.33%; for `COc1ccc(C(=O)NCC2(N3CCCCC3)CCCCC2)cc1`, inactive: 1.4%.
On to `O=C(NCC1(N2CCCCC2)CCCCC1)c1ccc(=O)[nH]c1`, for which the inhibition was inactive: 1.97%.
